Measurements published in patent US8853258B2, “C-linked hydroxamic acid derivatives useful as antibacterial agents” (Pfizer Inc., priority 2009, dated 2014).

Protein sequences, listed by entry. Tags and fused reporters are not part of them.
UniProt P47205, whole entry: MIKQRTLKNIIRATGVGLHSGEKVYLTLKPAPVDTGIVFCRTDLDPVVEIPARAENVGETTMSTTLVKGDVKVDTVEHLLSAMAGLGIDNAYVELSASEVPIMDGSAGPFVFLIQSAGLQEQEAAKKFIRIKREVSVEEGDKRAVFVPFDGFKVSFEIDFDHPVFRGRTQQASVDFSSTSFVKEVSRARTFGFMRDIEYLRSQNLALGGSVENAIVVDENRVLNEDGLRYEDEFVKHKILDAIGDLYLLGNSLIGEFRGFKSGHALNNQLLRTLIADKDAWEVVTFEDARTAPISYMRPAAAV

Legend:
[1] = target: Pseudomonas aeruginosa LpxC enzyme (Pseudomonas aeruginosa (strain ATCC 15692 / DSM 22644 / CIP 104116 / JCM 14847 / LMG 12228 / 1C / PRS 101 / PAO1), UniProt P47205); experiment: IC50 Assay, LpxC Enzyme from P. aeruginosa (PA LpxC Enzyme IC50); format: biochemical; conditions: read-out: PA LpxC enzyeme IC50; Table 1
[2] = system: Pseudomonas aeruginosa UI-18: Wild-type (PA-7); experiment: MIC determination (CLSI), PA-7; format: cell-based
Description: (§1) The in vitro antibacterial activity of compounds described in the Examples was evaluated by minimum inhibitory concentration (MIC) testing according to Clinical and Laboratory Standards Institute (CLSI, formerly NCCLS) guidelines. See: Clinical and Laboratory Standards Institute. Methods for Dilution Antimicrobial Susceptibility Tests for Bacteria that Grow Aerobically; Approved Standard-Seventh Edition. CLSI document M7-A7 [ISBN 1-56238-587-9]. Clinical and Laboratory Standards Institute, 940 West Valley Road, Suite 1400, Wayne, Pa. 19087-1898 USA, 2006; also Clinical and Laboratory Standards Institute. Performance Standards for Antimicrobial Susceptibility Testing; Eighteenth Informational Supplement. CLSI document M100-S18 [ISBN1-56238-653-0]. Clinical and Laboratory Standards Institute.
(§2) The following bacterial strains were used in these MIC determinations:
1) Pseudomonas aeruginosa UI-18: Wild-type, labeled as PA-7 in Tables 1, 2 and 3;

[3] = system: Acinetobacter baumanii/haemolyticus: Multidrug-resistant clinical isolate (AB-3167); experiment: MIC determination (CLSI), AB-3167; format: cell-based
Description: as §1, §2
2) Acinetobacter baumanii/haemolyticus: Multidrug-resistant clinical isolate labeled as AB-3167 in Tables 1, 2 and 3;

[4] = system: Escherichia coli EC-1: VOGEL, mouse virulent; experiment: MIC determination (CLSI), EC-1; format: cell-based
Description: as §1, §2
3) Escherichia coli EC-1: VOGEL, mouse virulent labeled as EC-1 in Tables 1, 2 and 3;

COc1cc(-c2ccc(F)cc2)ccc1CCC(C)(C(=O)NO)S(C)(=O)=O (stereo not shown)
IC50 [1]: 0.63 nM
PA-7 MIC ([2]; Table 1, MIC): 4 µg/mL
AB-3167 MIC ([3]; Table 1, MIC): 16 µg/mL
EC-1: (MIC) ([4]; Table 1, MIC): 4 µg/mL

CC(CCc1ccc(-c2ccc(O)cc2)cc1)(C(=O)NO)S(C)(=O)=O (stereo not shown)
PA-7 MIC ([2]; Pseudomonas aeruginosa UI-18 wild-type PA-7): 2 µg/mL
AB-3167 MIC ([3]; Acinetobacter baumanii/haemolyticus multidrug-resistant clinical isolate AB-3167): ≧64 mg/L
EC-1 MIC ([4]; Escherichia coli EC-1 VOGEL, mouse virulent): 16 µg/mL
